Measured values published in patent US6605308B2, “Pathogen management system” (Tomoco2 Equipment Company, priority 2001, dated 2003).

Columns and labels:
[1] = tested on: E-Coli; experiment: E-Coli testing at chiller system, Natchitoches, La.
[2] = tested on: E-Coli; experiment: E-Coli testing at immersion chiller, plant test at Dallas, Tex.; details: baseline

chlorine
samples over 10 cfu/ml ([1]; June baseline, 238 samples): 66%
samples over 100 cfu/ml ([1]; June baseline, 238 samples): 13%
samples over 10 cfu/ml ([1]; May 2001 baseline, 258 samples): 55%
samples over 100 cfu/ml ([1]; May 2001 baseline, 258 samples): 7%
E-Coli detection rate ([2]; February): 45%
samples with E-Coli detected ([2]; February, of 240 samples): 110 samples
E-Coli detection rate ([2]; January): 50%
samples with E-Coli detected ([2]; January, of 264 samples): 133 samples
